A mixed list of measured activities; the numbers were collected in NIAID ChemDB.

Common to all: growth or infection tests; species: Mycobacterium kansasii; measure: MIC

Rows are shuffled and stem from different studies.

| SMILES | strain or isolate | method | setting | value |
|---|---|---|---|---|
| Fc1ccc2oc(=S)n(-c3ccc(Cl)cc3)c(=S)c2c1 | My 235/80 | - | 14 d | 2 µM |
| C[C@H](NC(=O)OCc1ccccc1)c1cnc(-c2ccc([N+](=O)[O-])cc2)[nH]1 | My 6509/96 | - | 21 d | >125 µM |
| O=C(Nc1ccc(F)cc1)c1ccc(Cl)cc1OS(=O)(=O)c1ccccc1 | 6509/96 | - | 21 d | 16 µM |
| O=C(Oc1ccc(Cl)cc1C(=O)Nc1ccc(Cl)c(Cl)c1)c1cnccn1 | 6509/96 | - | 7 d | 1 µM |
| O=C(Nc1ccc(Br)cc1)c1cc(Cl)ccc1OS(=O)(=O)c1ccccc1 | 235/80 | - | 14 d | 8 µM |
| N/C(=N\N=C\c1ccccc1)SCc1cccc(Cl)c1 | 6509/96 | broth dilution | 21 d | 62.5 µM |
| O=C(Oc1cc(Cl)ccc1C(=O)Nc1cccc(Cl)c1)c1ccccc1 | 235/80 | broth dilution | 21 d | 4 µM |
| CC[C@@H](C)[C@H](NC(=O)OCc1ccccc1)c1cnc(-c2ccc([N+](=O)[O-])cc2)[nH]1 | My 235/80 | - | 14 d | 62.5 µM |
| COC(=O)c1cnccn1 | 6509/96 | - | 7 d | 500 µM |
| O=C(Nc1ccc(Cl)cc1)c1ccc(Cl)cc1OS(=O)(=O)c1ccccc1 | 235/80 | - | 21 d | 16 µM |
| O=C(Oc1cc(Cl)ccc1C(=O)Nc1ccc(F)cc1)c1ccccc1 | 235/80 | broth dilution | 14 d | 4 µM |
| N/C(=N\N=C\c1ccccc1)SCc1ccc(Br)cc1 | ATCC 12478 | broth dilution | 21 d | 62.5 µM |
| O=C(Oc1ccc(Cl)cc1C(=O)Nc1cccc(C(F)(F)F)c1)c1cnccn1 | 235/80 | - | 21 d | 8 µM |
| O=C(Nc1cccc(Cl)c1)c1cc(Cl)ccc1OS(=O)(=O)c1ccccc1 | 6509/96 | - | 14 d | 16 µM |
| N/C(=N\N=C\c1cc(Br)ccc1O)SCc1ccc(F)cc1 | 6509/96 | broth dilution | 21 d | 32 µM |
| C[C@@H](NC(=O)OCc1ccccc1)c1cnc(-c2ccccc2)[nH]1 | My 6509/96 | - | 14 d | 125 µM |
| COc1cccc(CS/C(N)=N/N=C/c2cc(Cl)ccc2O)c1 | 6509/96 | broth dilution | 14 d | 62.5 µM |
| CC(C)[C@H](NC(=O)OCc1ccccc1)c1cnc(-c2ccccc2)[nH]1 | My 6509/96 | - | 7 d | 32 µM |
| Cc1ccc2oc(=O)n(-c3cccc(Cl)c3)c(=S)c2c1 | 6509/96 | - | 21 d | 4 µM |
| N/C(=N\N=C\c1cc(Cl)ccc1O)SCc1ccc(Cl)cc1 | 6509/96 | broth dilution | 21 d | 32 µM |
| C[C@@H](NC(=O)OCc1ccccc1)c1cnc(-c2ccc([N+](=O)[O-])cc2)[nH]1 | My 6509/96 | - | 14 d | >125 µM |
| O=C(Oc1cc(Cl)ccc1C(=O)Nc1ccc(Br)cc1)c1ccccc1 | 6509/96 | broth dilution | 14 d | 4 µM |
| O=C(Oc1cc(Cl)ccc1C(=O)Nc1cccc(F)c1)c1cnccn1 | 235/80 | - | 21 d | 8 µM |
| O=C(Oc1cc(Cl)ccc1C(=O)Nc1ccc(C(F)(F)F)cc1)c1ccccc1 | 6509/96 | broth dilution | 21 d | 4 µM |
| N/C(=N\N=C\c1ccccc1O)SCc1ccc(Br)cc1 | ATCC 12478 | broth dilution | 14 d | 32 µM |
| O=C(Oc1ccc(Cl)cc1C(=O)Nc1ccc(Br)cc1)c1ccccc1 | 6509/96 | broth dilution | 7 d | 2 µM |
| O=C(Nc1cccc(F)c1)c1ccc(Cl)cc1OS(=O)(=O)c1ccccc1 | 6509/96 | - | 21 d | 32 µM |
| N/C(=N\N=C\c1cc(Br)ccc1O)SCc1ccc(C(F)(F)F)cc1 | ATCC 12478 | broth dilution | 14 d | 62.5 µM |
| O=C(N[C@@H](Cc1ccccc1)c1cnc(-c2ccc([N+](=O)[O-])cc2)[nH]1)OCc1ccccc1 | My 235/80 | - | 21 d | >62.5 µM |
| Cc1ccc(-n2c(=O)oc3ccc(C)cc3c2=S)cc1 | 6509/96 | - | 21 d | 2 µM |
| O=C(Nc1cccc(F)c1)c1cc(Cl)ccc1O | 235/80 | broth dilution | 14 d | 8 µM |
| Cc1ccc2oc(=S)n(-c3ccc(Cl)cc3)c(=S)c2c1 | My 235/80 | - | 21 d | 4 µM |
| O=C(Oc1cc(Cl)ccc1C(=O)Nc1ccc(Cl)c(Cl)c1)c1cnccn1 | 6509/96 | - | 7 d | 2 µM |
| S=c1oc2ccc(Br)cc2c(=S)n1-c1ccc(Cl)c(Cl)c1 | My 235/80 | - | 21 d | 8 µM |
| O=C(Oc1cc(Cl)ccc1C(=O)Nc1cccc(Br)c1)c1cnccn1 | 6509/96 | - | 14 d | 4 µM |

The first 2 rows once more:

SMILES	strain or isolate	method	setting	value
Fc1ccc2oc(=S)n(-c3ccc(Cl)cc3)c(=S)c2c1	My 235/80	-	14 d	2 µM
C[C@H](NC(=O)OCc1ccccc1)c1cnc(-c2ccc([N+](=O)[O-])cc2)[nH]1	My 6509/96	-	21 d	>125 µM

An empty or dashed field is not shown.